In publication PMC11005409:
For at least one entry, the source does not settle the construct or the ends of the probe.

By UniProt entry, the sequences of proteins in these tests, tags left out. Where a name states a change or a piece, a line headed by the entry shows the natural chain unless it says otherwise.
UniProt P0AE88: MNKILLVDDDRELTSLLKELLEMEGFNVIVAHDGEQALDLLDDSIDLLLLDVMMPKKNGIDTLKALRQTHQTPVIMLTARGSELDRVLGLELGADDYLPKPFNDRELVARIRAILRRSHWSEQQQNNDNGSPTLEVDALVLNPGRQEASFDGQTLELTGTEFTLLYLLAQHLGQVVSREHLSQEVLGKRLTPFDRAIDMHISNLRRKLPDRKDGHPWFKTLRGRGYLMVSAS

Molecular target: CpxR (phosphorylated) (UniProt P0AE88)
Test: EMSA
Conditions: CpxR phosphorylated with acetyl phosphate, 1-5 ug CpxR (legend prints mg), unlabeled probe control in lane 7; LightShift Chemiluminescent EMSA Kit binding reaction (composition not stated), 40 ng/mL probe (legend: 40 ng/uL), room temperature 30 min, 6% polyacrylamide gel; recombinant protein; protein details: His tag (pET28a NdeI/BamHI, Ni-NTA); label: biotin 3' end; probe letters rebuilt from the primers and the genome

Sequence: ACCCATCAGTAAAGGAATTAATTTAAACAACCATCCGATATATATATTCATTTTAAACCCCATATATATTTTCTGCTACACTTCGAAAAACATATGATTCGTCTTTTCAGTTAGTTAAATATGTCTATAAGATGCCATCAATTAAAAAAAGTAACTTCACTATAATCGGATTTAGCGTTATGGGGATCAACTTTTAGCGGTGAGTTAATGCTATTAAATAAATATTTATCCTAAGATAAACTCTGAATTAATATCTTTATCTTATTTTGTTGTTTTAAATGAGTCTTTTAGGAAATATTTTATTAAACCCACGAGCCTTTATCATCTATCATCTTTTCAGAATAAATTATTTTATATTCGGTATTTATTCGCATATCAGGCGATAATAACGCTATGTGATAGTC (double strand) [yhiM promoter region (0 to -400 bp)]
- binding result: binds
